# Experimental data from paper PMC6589724, “A geminivirus betasatellite encoded βC1 protein interacts with PsbP and subverts PsbP‐mediated antiviral defence in plants”.
# Construct, isoform or probe ends are uncertain for at least one entry. For part of these data: Negatives hold for the conditions tested.
# What was measured:
# [1] = molecular target: T1, MBP-PsbP (NbPsbP1, oxygen-evolving enhancer protein 2) (Nicotiana benthamiana) (UniProt A0A4D6IA34); assay: EMSA; conditions: 2 mM ATP, 5 mM Mg2+, 20 mM Tris-HCl pH 8.0, 2 mM DTT, 5 mM MgCl2, 12% glycerol, 25 mM KCl, 10 nM probe, 15 min, room temperature, 3.7% native PAGE, recombinant protein, residues 1-265, protein details: N-terminal MBP (pMAL-c2X), single-stranded DNA
# [2] = molecular target: T1, MBP-PsbP (NbPsbP1, oxygen-evolving enhancer protein 2) (Nicotiana benthamiana); assay: competition with a labelled probe; conditions: 100-fold excess (1 uM) vs ssDNA probe N4, 2 mM ATP, 20 mM Tris-HCl pH 8.0, 2 mM DTT, 5 mM MgCl2, 12% glycerol, 25 mM KCl, 10 nM probe, 15 min, room temperature, 3.7% native PAGE, recombinant protein, residues 1-265, protein details: N-terminal MBP (pMAL-c2X), single-stranded DNA
# MBP = assay: EMSA; conditions: 2 mM ATP, 5 mM Mg2+, 20 mM Tris-HCl pH 8.0, 2 mM DTT, 5 mM MgCl2, 12% glycerol, 25 mM KCl, 10 nM probe, 15 min, room temperature, 3.7% native PAGE, recombinant protein, label: 32P, single-stranded DNA
sequence,measurement,setting,value
GTCGACTACAGATGAACGCGTATACACATC [βC1 probe],binding result,[1]; label: 5'-32P,binds
ATTGGTGTCTGGAGTCCTAT [CR probe],binding result,[1]; label: 5'-32P,binds
ACGCTACGCAGCAGCCTTAGCTAC [SCR probe (1303-1326)],binding result,"[1]; binding increases with ATP, label: 5'-32P",binds
AGGCTGGATTTGCTGGAGATGATG [NbActin ssDNA competitor],binding result,[2],binds
CTAAAACTCGTCGGAACTCCGATTAAGGCACTTCCGGTCACCAATTTGCGACACGCGCGGCGGTGCGTACCCCTGGGAGGGTAGGGTACCACTACGCTACGCAGCAGCCTTAGCTA [ssDNA probe 1210-1325],binding result,[1]; label: 32P,binds
same,binding result,MBP,no binding
